A mixed list of measured activities; the numbers were collected in NIAID ChemDB.

Shared fields: cytotoxicity tests; cells: MT-4; endpoint: CC50

Blank or dashed fields: not listed here. CCn: concentration that lowers growth or viability of the cells by n%. Rows are shuffled and stem from different studies.

smiles | method | result
CCOC(CSc1nc(Cc2cccc3ccccc23)c(CC)c(=O)[nH]1)OCC | - | <100 µM
COc1cc(OCc2nc3cc(C(F)(F)F)ccc3n3cccc23)cc(OC)c1OC | MTT | 100 µM
O=C(NNc1ccn([C@H]2CC[C@@H](CO)O2)c(=O)n1)c1ccccc1O | - | >100 µM
CC1(C)C2CCC3C(C(=O)C=C4C5C[C@@](C)(C(=O)O)CC[C@]5(C)CC[C@]43C)[C@@]2(C)CC[C@@H]1O[C@@H]1O[C@H](C(=O)O)[C@@H](O[C@@H]2O[C@H](C(=O)O)[C@@H](O)[C@H](O)[C@H]2O)[C@H](O)[C@H]1O | - | 132 µg/mL
Cc1cc(C)cc(S(=O)(=O)c2c(C(=O)NCC(=O)NC(C)C(=O)NN)[nH]c3ccc(Cl)cc23)c1 | - | 100 µM
CC(C)CN(C[C@@H](O)[C@H](Cc1ccccc1)NC(=O)O[C@H]1CO[C@H]2OCC[C@H]21)S(=O)(=O)c1ccc2nc(N)n(C)c2c1 | - | >100 µM
Cc1cc(C)c(S(N)(=O)=O)c(C)c1-c1c2nc(c(-c3c(C)cc(C)c(S(N)(=O)=O)c3C)c3ccc([nH]3)c(-c3c(C)cc(C)c(S(N)(=O)=O)c3C)c3nc(c(-c4c(C)cc(C)c(S(N)(=O)=O)c4C)c4ccc1[nH]4)C=C3)C=C2 | - | 80 µg/mL
N#Cc1cc(Cl)cc(Oc2cc(OCc3[nH]nc4ccncc34)ccc2Cl)c1 | - | >8.3 µM
O=C(NCc1ccc(F)cc1)c1nc2n(c(=O)c1O)CCNC2 | microscopy | >1 µM
Nc1ccn([C@H]2CO[C@H](CO)O2)c(=O)n1 | - | >465 µM
Cn1c(-c2ccccc2F)cc(N)nc1=O | MTT | 13.27 µM
O=C(O)CCC(NC(=O)c1ccc(OCc2nc3ccccc3n3cccc23)cc1)C(=O)O | MTT | 95 µM
COc1c(O)cc2ccc(=O)oc2c1-c1c(O)ccc2ccc(=O)oc12 | MTT | 54 µM
NCCC[C@@H](N)CC(=O)NCN | - | 0.36 µg/mL
CCOC1CSc2nc(Cc3cc(C)cc(C)c3)c(CC)c(=O)n21 | - | <100 µM
CN1CCn2c(nc(C(=O)NCc3ccc(F)c(Cl)c3)c(O)c2=O)C(N(C)C(=O)C(=O)N(C)C)C1 | microscopy | >1 µM
CC(C)CN(C[C@@H](O)[C@H](Cc1ccccc1)NC(=O)OCc1cncs1)S(=O)(=O)c1ccc2nc[nH]c2c1 | - | >100 µM
CC1CC(C)CN(S(=O)(=O)c2ccccc2[N+](=O)[O-])C1 | trypan blue | >50 µM
C[C@H](CCCC(C)(C)O)[C@H]1CC[C@H]2[C@@H]3[C@@H](O)C=C4C[C@@H](O)CC[C@]4(C)[C@H]3CC[C@]12C | - | >25 µM
COc1cc(Cc2cnc(/N=C3\C(=O)N(CN4CCN(c5cccc(Cl)c5)CC4)c4ccc(F)cc43)nc2N)cc(OC)c1OC | MTT | 121.6 µg/mL
CCOC(=O)c1nnsc1NCc1ccccc1N | MTT | >290 µM
NNC(=O)c1[nH]c2ccc(Cl)cc2c1S(=O)(=O)c1ccccc1 | - | >100 µM
C#CCOCn1c(Cc2cc(F)ccc2F)c(CC)c(=O)[nH]c1=O | - | >100 µM
CC(C)CN(C[C@@H](O)[C@H](Cc1ccccc1)NC(=O)O[C@H]1CO[C@H]2OCC[C@H]21)S(=O)(=O)c1ccc2nc(CO)[nH]c2c1 | - | >100 µM
Cc1cn([C@@H]2CS[C@@H](CO)O2)c(=O)[nH]c1=O | - | >410 µM
NS(=O)(=O)c1ccc(-c2c3nc(c(-c4ccc(S(N)(=O)=O)cc4)c4ccc([nH]4)c(-c4ccc(S(N)(=O)=O)cc4)c4nc(c(-c5ccc(S(N)(=O)=O)cc5)c5ccc2[nH]5)C=C4)C=C3)cc1 | - | 70 µg/mL
Cc1cccc(C)c1OCC(=O)N[C@@H](Cc1ccccc1)[C@H](O)CN(CC(C)C)S(=O)(=O)c1ccc2ncn(CCc3ccccc3)c2c1 | - | >100 µM
CCn1cc(C(=O)O)c(=O)c2cc(F)c(N3CCN(CN4C(=O)/C(=N\c5ncc(Cc6cc(OC)c(OC)c(OC)c6)c(N)n5)c5cc(F)ccc54)C(C)C3)c(F)c21 | MTT | 130.9 µg/mL
CCOC(=O)CCC(NC(=O)c1ccc(Nc2nc3ccccc3n3cccc23)cc1)C(=O)OCC | MTT | 48 µM
[O-][n+]1onc2ncnc(N3CC[N+]4(CC3)CC[N+]3(CCN(c5ncnc6no[n+]([O-])c56)CC3)CC4)c21 | XTT | >200 µM
COc1cc(Nc2nc3cc(C(F)(F)F)ccc3n3cccc23)cc(OC)c1OC | MTT | 57 µM
CCNc1c(N=Nc2ccc(Cl)cc2)c(N)nc(=O)n1C | MTT | 36.72 µM
CC[C@H](C)[C@H]([NH3+])C(=O)NNc1ccn([C@H]2CC[C@@H](CO)O2)c(=O)n1 | - | >100 µM
NC(=O)CNC(=O)c1[nH]c2ccc(Cl)cc2c1S(=O)(=O)c1ccccc1 | - | 65 µM
CCOC1CSc2nc(Cc3ccccc3)c(C(C)C)c(=O)n21 | - | <100 µM
CCCNc1c(N=Nc2ccc(-c3ccc(OC)c(OC)c3)cc2)c(N)nc(=O)n1C | MTT | 36.76 µM
CCOC1CSc2nc(=O)c(CC)c(Cc3cccc4ccccc34)n21 | - | <100 µM
COc1cc(Cc2cnc(/N=C3\C(=O)N(CN4CCCC4)c4ccc(F)cc43)nc2N)cc(OC)c1OC | MTT | 129.6 µg/mL
C#CCOCn1c(Cc2cc(C(F)(F)F)cc(C(F)(F)F)c2)c(CC)c(=O)[nH]c1=O | - | >100 µM
CCOC(=O)c1ccc(OCc2nc3cc(C(F)(F)F)ccc3n3cccc23)cc1 | MTT | >100 µM
N#Cc1cc2ccc(N[C@H]3CCNC3)cc2n(-c2ccc([N+](=O)[O-])cc2)c1=O | - | >32 µM
CCOC(CSc1nc(Cc2ccccc2)c(C(C)C)c(=O)[nH]1)OCC | - | <100 µM
O=C(O)CCC(NC(=O)c1ccc(Nc2nc3cc(C(F)(F)F)ccc3n3cccc23)cc1)C(=O)O | MTT | >100 µM
Nc1ccn([C@@H]2CO[C@H](CO)O2)c(=O)n1 | - | 0.465 µM
O=C1CSC(c2c(Cl)cccc2Cl)N1Cc1ccco1 | MTT | 44.8 µM
N#Cc1cc2ccc(OC[C@@H]3CCCN3)cc2n(-c2ccc([N+](=O)[O-])cc2)c1=O | - | >32 µM
CC(C)CN(C[C@@H](O)[C@H](Cc1cc(F)cc(F)c1)NC(=O)O[C@H]1CO[C@H]2OC[C@H](NC(C)C)[C@H]21)S(=O)(=O)c1ccc2nc(NC3CC3)sc2c1 | WST | 45.4 µM
COC(=O)N1CCn2c(nc(C(=O)NCc3ccc(F)cc3)c(O)c2=O)C1CN(C)C | microscopy | >1 µM
CCNc1c(C#N)c(=O)n(-c2ccc([N+](=O)[O-])cc2)c2ccccc12 | - | >100 µM
CCOCn1c(Cc2cc(C)cc(C)c2)c(C(C)C)c(=O)[nH]c1=O | - | 43 µM
Cc1cc(C)cc(S(=O)(=O)c2c(C(=O)NC(C)C(N)=O)[nH]c3ccc(Cl)cc23)c1 | - | 4 µM
Cc1cccc(C)c1OCC(=O)N[C@@H](Cc1ccccc1)[C@H](O)CN(CC(C)C)S(=O)(=O)c1ccc2nc[nH]c2c1 | - | 61.7 µM
CCc1c(Cc2cccc3ccccc23)nc2n(c1=O)C(OC)CS2 | - | <100 µM
CC(=O)c1c(C)nc(-c2ccccc2)nc1NC(=O)c1ccccc1 | trypan blue | >50 µM
CN(C)CC1c2nc(C(=O)NCc3ccc(F)cc3)c(O)c(=O)n2CCN1Cc1cocn1 | microscopy | >10 µM
COc1cc(Cc2cnc(/N=C3\C(=O)N(CN4CCN(C)CC4)c4ccc(F)cc43)nc2N)cc(OC)c1OC | MTT | 106.7 µg/mL
Nc1nc(N)c2ncn([C@@H]3CS[C@@H](CO)O3)c2n1 | - | >373 µM
CC(C)c1c(Cc2ccccc2)nc(SCC2OCCO2)[nH]c1=O | - | <100 µM
N#Cc1c(N)c2ccc(-c3ccccc3)cc2n(-c2ccc([N+](=O)[O-])cc2)c1=O | - | >100 µM
O=S(=O)(O)c1cc(S(=O)(=O)O)c2cc(OS(=O)(=O)c3cccc4c(S(=O)(=O)Oc5ccc6cc(S(=O)(=O)O)cc(S(=O)(=O)O)c6c5)cccc34)ccc2c1 | - | >100 µM
Cc1ccnc2c1NC(=O)c1cccnc1N2C1CC1 | MTT | >100 µM
CCn1cc(C(=O)O)c(=O)c2cc(F)c(N3CCN(c4ccccc4OC)CC3)c(OC(F)F)c21 | - | 3.2 µM
CCOCn1c(Cc2cc(C(F)(F)F)cc(C(F)(F)F)c2)c(C(C)C)c(=O)[nH]c1=O | - | >100 µM
[N-]=[N+]=N[C@]1(CO)O[C@@H](n2cnc3c(N)nc(N)nc32)C[C@@H]1O | absorbance | 3.2 µM
CC(C)CN(C[C@@H](O)[C@H](Cc1ccccc1)NC(=O)OCc1cncs1)S(=O)(=O)c1ccc2ncn(C)c2c1 | - | >100 µM
CCc1c(Cc2cccc3ccccc23)nc(SCC2OCCO2)[nH]c1=O | - | <100 µM
CN(C)CC(=O)N1CCn2c(nc(C(=O)NCc3ccc(F)cc3)c(O)c2=O)C1(C)C | microscopy | >1 µM
N#Cc1cc2ccc(OCCO)cc2n(-c2ccc([N+](=O)[O-])cc2)c1=O | - | 23 µM
Nc1nc(N)c2ncn([C@H]3CS[C@@H](CO)O3)c2n1 | - | >373 µM
CC(C)CN(C[C@@H](O)[C@H](Cc1ccccc1)NC(=O)OC1COC2OCCC12)S(=O)(=O)c1ccc2ncn(Cc3ccccc3)c2c1 | - | 63.1 µM
C=C1[C@H](CO)[C@@H](O)C[C@@H]1n1cnc2c(=O)[nH]c(N)nc21 | absorbance | 44.5 µM
CC1(C)C2CC[C@]3(C)C(C(=O)C=C4C5C[C@@](C)(C(=O)O)CC[C@]5(C)CC[C@]43C)[C@@]2(C)CC[C@@H]1O[C@@H]1O[C@H](C(=O)[O-])[C@@H](O[C@@H]2O[C@H](C(=O)[O-])[C@@H](OS(=O)(=O)[O-])[C@H](OS(=O)(=O)[O-])[C@H]2OS(=O)(=O)[O-])[C@H](OS(=O)(=O)[O-])[C@H]1OS([O-])(O)O | - | 280 µg/mL
N#C[C@]1(CO)O[C@@H](n2cnc3c(=O)[nH]c(N)nc32)C[C@@H]1O | absorbance | 2.3 µM
COc1cc(Cc2cnc(/N=C3\C(=O)N(CN4CCN(c5cccc(C(F)(F)F)c5)CC4)c4ccc(F)cc43)nc2N)cc(OC)c1OC | MTT | 136.6 µg/mL
CC(C)CN(C[C@@H](O)[C@H](Cc1ccccc1)NC(=O)OC1COC2OCCC12)S(=O)(=O)c1ccc2nc[nH]c2c1 | - | >100 µM

Repeating the first 8 entries:

{"smiles": "CCOC(CSc1nc(Cc2cccc3ccccc23)c(CC)c(=O)[nH]1)OCC", "result": "<100 µM"}
{"smiles": "COc1cc(OCc2nc3cc(C(F)(F)F)ccc3n3cccc23)cc(OC)c1OC", "method": "MTT", "result": "100 µM"}
{"smiles": "O=C(NNc1ccn([C@H]2CC[C@@H](CO)O2)c(=O)n1)c1ccccc1O", "result": ">100 µM"}
{"smiles": "CC1(C)C2CCC3C(C(=O)C=C4C5C[C@@](C)(C(=O)O)CC[C@]5(C)CC[C@]43C)[C@@]2(C)CC[C@@H]1O[C@@H]1O[C@H](C(=O)O)[C@@H](O[C@@H]2O[C@H](C(=O)O)[C@@H](O)[C@H](O)[C@H]2O)[C@H](O)[C@H]1O", "result": "132 µg/mL"}
{"smiles": "Cc1cc(C)cc(S(=O)(=O)c2c(C(=O)NCC(=O)NC(C)C(=O)NN)[nH]c3ccc(Cl)cc23)c1", "result": "100 µM"}
{"smiles": "CC(C)CN(C[C@@H](O)[C@H](Cc1ccccc1)NC(=O)O[C@H]1CO[C@H]2OCC[C@H]21)S(=O)(=O)c1ccc2nc(N)n(C)c2c1", "result": ">100 µM"}
{"smiles": "Cc1cc(C)c(S(N)(=O)=O)c(C)c1-c1c2nc(c(-c3c(C)cc(C)c(S(N)(=O)=O)c3C)c3ccc([nH]3)c(-c3c(C)cc(C)c(S(N)(=O)=O)c3C)c3nc(c(-c4c(C)cc(C)c(S(N)(=O)=O)c4C)c4ccc1[nH]4)C=C3)C=C2", "result": "80 µg/mL"}
{"smiles": "N#Cc1cc(Cl)cc(Oc2cc(OCc3[nH]nc4ccncc34)ccc2Cl)c1", "result": ">8.3 µM"}